A mixed list of measured activities; the numbers were collected in NIAID ChemDB.

All rows: cytotoxicity tests; cell line: HepG2 2.2.15; measure: CC50

Rows are shuffled and stem from different studies. CCn is the concentration with n% toxicity to the cells. An empty or dashed field is not shown.

SMILES	method	result
Cc1c(-c2cnccn2)ssc1=S	-	>50 µM
O=C(OC[C@H]1O[C@@H](OC(=O)c2cc(O)c(O)c(OC(=O)c3cc(O)c(O)c(O)c3)c2)[C@H](OC(=O)c2cc(O)c(O)c(OC(=O)c3cc(O)c(O)c(O)c3)c2)[C@@H](OC(=O)c2cc(O)c(O)c(OC(=O)c3cc(O)c(O)c(O)c3)c2)[C@@H]1OC(=O)c1cc(O)c(O)c(OC(=O)c2cc(O)c(O)c(O)c2)c1)c1cc(O)c(O)c(OC(=O)c2cc(O)c(O)c(O)c2)c1	-	17 µM
Nc1ccn([C@@H]2C=C(F)[C@H](CO)O2)c(=O)n1	-	>100 µM
O=c1c(-c2ccc(O)cc2)coc2cc(O)ccc12	-	>100 µM
COc1cc(NC(=O)Nc2cccc(CNC(=O)O[C@H]3CCOC3)c2)ccc1-c1cnco1	XTT	5.2 µM
COC(=O)[C@H](C)NP(=O)(OC[C@@H]1CC[C@H](n2cnc3c(N)ncnc32)C1)Oc1ccccc1	-	38 µM
Nc1ncnc2c1ncn2CCOCP(=O)(O)O	-	37 µM
C[C@H]1[C@@H](OC(=O)CCC(=O)O)O[C@@H]2O[C@@]3(C)CC[C@H]4[C@H](C)CC[C@@H]1[C@@]24OO3	-	20 µM
CC(C)OC(=O)[C@H](C)N[P@](=O)(CO[C@H](C)Cn1cnc2c(N)ncnc21)Oc1ccccc1	MTT	37 µM
CC12CCC(OC(=O)CCC(=O)O)CC1CCC1C2CCC2(C)C(c3ccc(=O)oc3)CCC12O	-	>100 µM
Nc1nc(N)c2ncn(C[C@@H](CO)OCP(=O)(O)O)c2n1	-	>100 µM
CCCCCCCCCN1C[C@H](O)[C@@H](O)[C@H](O)[C@H]1CO	-	175 µM
O=C(N[C@H](CO)Cc1ccccc1)/C(NC(=O)c1ccc(Cl)cc1Cl)=C(/Br)c1ccccc1	MTT	>100 µM
C[C@@H]1CCC=C2C(=O)C[C@@H](O)[C@@H](C(C)(C)O)[C@]21C	-	>100 µM
Nc1ncnc2c1ncn2CCOCP(=O)(O)O	-	>10 µM
CC1(C)OCC(CCCCN2C[C@H](O)[C@@H](O)[C@H](O)[C@H]2CO)O1	-	>1000 µM
COC1=CC23CCCN2CCc2cc4c(cc2C3C1O)OCO4	-	>100 µM
CC(C)(C)CCCCCCCN1C[C@H](O)[C@@H](O)[C@H](O)[C@H]1CO	-	600 µM
O=c1c(-c2ccc(O)cc2)coc2cc(OC3O[C@H](CO)[C@@H](O)[C@H](O)[C@H]3O)ccc12	-	>100 µM

The last 2 rows once more:

{"SMILES": "CC(C)(C)CCCCCCCN1C[C@H](O)[C@@H](O)[C@H](O)[C@H]1CO", "result": "600 µM"}
{"SMILES": "O=c1c(-c2ccc(O)cc2)coc2cc(OC3O[C@H](CO)[C@@H](O)[C@H](O)[C@H]3O)ccc12", "result": ">100 µM"}